Measurements reported in paper PMC9537594.

Tests used:
[1] = molecular target: Cross-linked His-CAhex: disulfide-stabilized hexamer of 6-His-CA(A14C/E45C/W184A/M185A) (HIV-1); assay: SPR; Reichert 4-SPR; cross-linked His-CAhex immobilised on an NTA chip via the C-terminal His-tag; peptides 3.9 μM to 2 mM; 0.01 M HEPES pH 7.4, 0.15 M NaCl, 0.05% v/v Surfactant P20; simple kinetic model
[2] = molecular target: cross-linked His-CAhex, 6-His-CA(A14C/E45C/W184A/M185A) (HIV-1); assay: SPR; Reichert 4-SPR; cross-linked His-CAhex immobilised on an NTA chip via the C-terminal His-tag; peptides 3.9 µM to 2 mM; 0.01 M HEPES pH 7.4, 0.15 M NaCl, 0.05% Surfactant P20; Scrubber 2.0, simple kinetic model

Substance	Kd [1] [µM]	Kd [2] [µM]
CPSF6_(313-327) 15-mer FG peptide (from UniProt Q16630-2 313-327)	71	–
CPSF6313-327 peptide	–	70.9
